In patent US20040002582A1 (University of Texas, published 2004):

Target: T1, OHF-E-D3 (Omsk hemorrhagic fever virus), Q7T6D2
T1 chain: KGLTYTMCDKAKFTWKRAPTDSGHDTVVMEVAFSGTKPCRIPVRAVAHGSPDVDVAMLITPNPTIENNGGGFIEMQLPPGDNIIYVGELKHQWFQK

RCCHPQCKEGKKCR (designed binder, modifications not checked) [MP-100N]
Kd: 16 µM

RCCHPQCKEGKKCR (designed binder, modifications not checked) [MP-100C]
Kd: 30 µM
